By stoichiometry N is commonly meant the number of molecules, sites or subunits per partner or assembly.

Experimental findings from publication PMC6819664, “Crystal Structure of African Swine Fever Virus dUTPase Reveals a Potential Drug Target” (2019) are described below.

The target in the assay is African swine fever virus (ASFV) E165R dUTP nucleotidohydrolase (dUTPase) (African swine fever virus) (UniProt Q65199). The experiment in a line: AUC.

As to “African swine fever virus (ASFV) E165R dUTP nucleotidohydrolase (dUTPase) (from UniProt Q65199 1-165) (enzyme)”, the stoichiometry N came to 3.
